Results: patent US7291478B1

Sequences of proteins named here, by UniProt entry; tags and fusion partners are left off. A change or cut given only in a name is not applied to a line headed by its entry.
UniProt Q45087: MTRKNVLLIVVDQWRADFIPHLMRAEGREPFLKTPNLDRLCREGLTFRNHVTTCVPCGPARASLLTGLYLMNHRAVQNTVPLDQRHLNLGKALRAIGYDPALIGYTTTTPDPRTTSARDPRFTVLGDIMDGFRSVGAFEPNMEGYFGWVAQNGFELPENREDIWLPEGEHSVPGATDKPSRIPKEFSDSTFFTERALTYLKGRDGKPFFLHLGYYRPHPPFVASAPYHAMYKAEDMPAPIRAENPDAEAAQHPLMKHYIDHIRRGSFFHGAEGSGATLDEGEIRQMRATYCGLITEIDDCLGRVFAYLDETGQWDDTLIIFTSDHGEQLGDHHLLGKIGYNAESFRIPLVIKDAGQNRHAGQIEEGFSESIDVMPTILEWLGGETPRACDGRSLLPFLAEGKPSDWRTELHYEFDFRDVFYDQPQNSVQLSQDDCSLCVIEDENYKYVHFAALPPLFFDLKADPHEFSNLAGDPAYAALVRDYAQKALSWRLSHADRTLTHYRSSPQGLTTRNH

The substances below were run against phosphonate ester hydrolase (PEH) (Trinickia caryophylli, UniProt Q45087). Conditions: synthetic phosphonate ester 10 mM, 50 mM BTP pH 9.0, 1 mM MnCl2, 2 μl PEH extract, about 30° C.; GC-FPD of TMS derivatives.
In the case of Cetyl phenylphosphonate, the “Degraded by PEH” value is reported as “YES”.
Ethyl allylphosphonate was tested, and the “Degraded by PEH” value was “YES”.
In the case of Propyl phenylphosphonate, the “Degraded by PEH” value is reported as “YES”.
In the case of Ethyl benzylphosphonate, the “Degraded by PEH” value is reported as “YES”.
With Butyl butylphosphonate the “Degraded by PEH” value was “YES”.
With Benzyl phenylphosphonate the “Degraded by PEH” value was “YES”.
Ethyl vinylphosphonate was tested, and the “Degraded by PEH” value was “YES”.
For Isopropyl benzylphosphonate, the “Degraded by PEH” value was “YES”.
In the case of Isopropyl allylphosphonate, the “Degraded by PEH” value is reported as “YES”.
For p-Nitrophenyl phenylphosphonate, the “Degraded by PEH” value was “YES”.
In the case of Cyclohexyl phenylphosphonate, the “Degraded by PEH” value is reported as “YES”.
With Methyl phenylphosphonate the “Degraded by PEH” value was “YES”.
In the case of Ethyl benzoylphosphonate, the “Degraded by PEH” value is reported as “YES”.
